Results of unrelated studies side by side (data: NIAID ChemDB).

All rows: tests in culture; organism: Candida albicans

Blank or dashed fields: not listed here.

CC1C(=O)C(C)C(c2ccccc2)N(OCCc2nc3ncccc3[nH]2)C1c1ccccc1 ; strain: 6 (NCIM-C27) ; measure: MIC ; value: 200 µg/mL
O=Cc1cc(-c2ccc(F)cc2)on1 ; measure: MIC ; value: 50 µg/mL
Cc1c(S(=O)(=O)c2ccccc2)[n+](=O)c2ccccc2n1[O-] ; strain: Clinical isolate 1 ; measure: MIC ; value: 31.25 µg/mL
COc1ccc(CN2C[C@H](OC[C@@]34C[C@@H]5[C@H](C)CC[C@H]5[C@@]5(C=O)C[C@@H]3CC(C(C)C)[C@@]45C(=O)O)O[C@H](C)C2)cc1 ; strain: 16 isolates/fluconazole resistant ; measure: MIC50 ; value: 0.002 µg/mL
CCn1nc(C)c(N)c1-c1cc(C)on1 ; measure: MIC ; value: >200 µM
Cc1c(Sc2ccccc2)[n+](=O)c2cc(C(F)(F)F)ccc2n1[O-] ; strain: Clinical isolate 9 ; measure: MIC ; value: 31.25 µg/mL
Cc1cccc2ncn([C@H](C)[C@](O)(Cn3cncn3)c3ccc(F)cc3F)c(=O)c12 ; strain: 406 strains ; measure: MIC ; value: 0.07 µg/mL
O=C1CC(c2ccc(Cl)cc2)N(OCCc2nc3ncccc3[nH]2)C(c2ccc(Cl)cc2)C1 ; strain: 51 (NCIM-C27) ; measure: MIC ; value: 25 µg/mL
Cc1cc(NC(=O)c2ccccc2NC(=O)COc2ccc(Cl)cc2)no1 ; strain: ATCC 10231 ; measure: MIC ; value: >100 µg/mL
CCOC(=O)C1=C(C)NC(=O)C1 ; measure: MIC ; value: >100 µg/mL
C[C@@H](n1cnc2cc(Cl)ccc2c1=O)[C@](O)(Cn1cncn1)c1ccc(Cl)cc1Cl ; strain: 406 strains ; measure: MIC ; value: ≤0.03 µg/mL
CCCCCCn1cc[n+](COCCCCCOC[n+]2ccn(CCCCCC)c2)c1 ; strain: ATCC 90028 ; measure: MIC100 ; method: agar diffusion ; value: 158 µM
COc1ccc(C2CC(=O)CC(c3ccc(OC)cc3)N2OCCc2nc3ncccc3[nH]2)cc1 ; strain: 51 (NCIM-C27) ; measure: MIC ; value: 100 µg/mL
Cc1ccccc1/C=C1\SC(=O)N(CC(O)(Cn2nccn2)c2ccc(F)cc2F)C1=O ; strain: CaCYP51 ; measure: MIC80 ; value: 8.76 µg/mL
CCOC(=O)c1c(C)[nH]c(O)c1/C=N/Nc1ccc([N+](=O)[O-])cc1[N+](=O)[O-] ; measure: MIC ; value: >100 µg/mL
COc1cncc(/C(N)=N/N=C(\N)c2cncc(OC)n2)n1 ; measure: MIC ; method: broth dilution ; value: >256 µg/mL
CCn1nc(C)c([N+](=O)[O-])c1-c1cc(C)on1 ; measure: MIC ; value: >200 µM
Cc1cc(NC(=O)c2ccc(NC(=O)COc3ccccc3C)cc2)no1 ; strain: ATCC 10231 ; measure: MIC ; value: >100 µg/mL
C=C(C)CN1C[C@H](OC[C@@]23C[C@@H]4[C@H](C)CC[C@H]4[C@@]4(C=O)C[C@@H]2CC(C(C)C)[C@@]34C(=O)O)O[C@H](C)C1 ; strain: CL-245 (fluconazole-resistant) ; measure: MIC ; value: 0.002 µg/mL
COc1cc(CN2C=Cc3cc(OC)c(OC)c4nccc2c34)cc(OC)c1OC ; measure: MIC ; value: >64 µg/mL
COc1cc(O)c2c(c1)C(=O)c1c(cc3c(c1O)-c1c(cc(C)c(C(=O)NC(CO)C(=O)O)c1O)[C@H](OC1OC(C)C(N(C)C)C(OC4OCC(O)C(O)C4O)C1O)[C@H]3O)C2=O ; strain: ATCC 32354 (B311) ; measure: MIC ; value: 6.3 µg/mL
CCCCCCCCCn1cc[n+](COCCCCOC[n+]2ccn(CCCCCCCCC)c2)c1 ; strain: ATCC 90028 ; measure: MIC100 ; method: agar diffusion ; value: 9 µM
CCCCCCCC[n+]1ccc(/C=C/C(=O)c2ccccc2OC)cc1 ; measure: MIC ; value: <8.12 µg/mL
CCCCCn1cc[n+](COCCCCCCOC[n+]2ccn(CCCCC)c2)c1 ; strain: ATCC 90028 ; measure: MIC100 ; method: agar diffusion ; value: 10 µM
CCOC(=O)c1c(C)[nH]c(O)c1/C=N/N1C(=N)SCC1=O ; measure: MIC ; value: >100 µg/mL
N#Cc1ccc(/C=C2\SC(=O)N(CC(O)(Cn3nccn3)c3ccc(F)cc3F)C2=O)cc1 ; strain: CaCYP51 ; measure: MIC80 ; value: 0.53 µg/mL
OC(Cn1cncn1)(Cn1cncn1)c1ccc(F)cc1F ; strain: ATCC 90028 (azole-susceptible) ; measure: MIC80 ; value: 0.25 µg/mL
CNN=C(N)c1cnccn1 ; measure: MIC ; method: broth dilution ; value: >256 µg/mL
Clc1ccc(COC(Cn2ccnc2)c2ccc(Cl)cc2Cl)c(Cl)c1 ; measure: MFC ; value: 7 µM
CCC(C)/C=C1\SC(=O)N(CC(O)(Cn2nccn2)c2ccc(F)cc2F)C1=O ; strain: CaCYP51 ; measure: MIC80 ; value: 0.31 µg/mL
O=C(/C=C/c1ccc(O)cc1O)c1ccccc1 ; strain: SDAU3 ; measure: MIC ; value: 75 µg/mL
COc1cccc(C(=O)/C=C/c2cccnc2)c1 ; measure: MIC ; value: 37.8 µg/mL
CCCCCCCCCCCCCCCCn1cc[n+](COCCCCCOC[n+]2ccn(CCCCCCCCCCCCCCCC)c2)c1 ; strain: ATCC 90028 ; measure: MIC100 ; method: agar diffusion ; value: 102 µM
CCCCCCCC[n+]1ccc(/C=C/C(=O)c2cccc(OC)c2)cc1 ; measure: MIC ; value: <7.18 µg/mL
CCCCCCCCCCCCn1cc[n+](COCCCCOC[n+]2ccn(CCCCCCCCCCCC)c2)c1 ; strain: ATCC 90028 ; measure: MIC100 ; method: agar diffusion ; value: 30 µM
COc1c(O)c2c(=O)cc(OC)c3c4c(OC)cc(=O)c5c(O)c(OC)c6c(c(c1CC(C)=C6OC(C)=O)c23)c54 ; measure: MIC ; value: 22 µg/mL
CCCCCCCCCCCC[n+]1ccc(/C=C/C(=O)c2ccc(OC)cc2)cc1 ; measure: MIC ; value: 58.1 µg/mL
C[C@H]1[C@H](O)[C@@H](C)/C=C/C=C/C=C/C=C/C=C/C=C/C=C/[C@H](O[C@@H]2O[C@H](C)[C@@H](O)[C@H](N)[C@@H]2O)C[C@@H]2O[C@](O)(C[C@@H](O)C[C@@H](O)CC[C@H](O)[C@@H](O)C[C@@H](O)CC(=O)O[C@H]1C)C[C@H](O)[C@H]2C(=O)O ; strain: A28235 ; measure: MIC ; value: 0.25 µg/mL
O=C(/C=C/c1cc(O)ccc1O)c1ccccc1 ; strain: SDAU2 ; measure: MIC ; value: 100 µg/mL
O=C1S/C(=C\c2ccoc2)C(=O)N1CC(O)(Cn1nccn1)c1ccc(F)cc1F ; strain: CaCYP51 ; measure: MIC80 ; value: 0.15 µg/mL
CC(C)[C@]1(C)CC[C@]2(C)C=C[C@](C)(O)C[C@H](OC(=O)c3ccccc3)C12 ; strain: SC5314 ; measure: MIC ; value: >50 µg/mL
CNN=C(N)c1cncc(OC)n1 ; measure: MIC ; method: broth dilution ; value: >256 µg/mL
C[C@H]1[C@H](O)[C@@H](C)/C=C/C=C/C=C/C=C/C=C/C=C/C=C/[C@H](O[C@@H]2O[C@H](C)[C@@H](O)[C@H](N)[C@@H]2O)C[C@@H]2O[C@](O)(C[C@@H](O)C[C@@H](O)CC[C@H](O)[C@@H](O)C[C@@H](O)CC(=O)O[C@H]1C)C[C@H](O)[C@H]2C(=O)O ; strain: 58 strains ; measure: MIC50 ; value: 0.5 µg/mL
O=Cc1cc(-c2ccc(F)cc2)no1 ; measure: EC50 ; value: 27.1 µg/mL
C[C@@H](n1cnc2cc(C(N)=O)ccc2c1=O)[C@](O)(Cn1cncn1)c1ccc(F)cc1F ; strain: 60 strains ; measure: MIC ; value: 5 µg/mL
CN(C)c1ccc(/C=C2\SC(=O)N(CC(O)(Cn3nccn3)c3ccc(F)cc3F)C2=O)cc1 ; strain: CaCYP51 ; measure: MIC80 ; value: 2.06 µg/mL
Cc1cccc2c(=O)n([C@H](C)[C@](O)(Cn3cncn3)c3ccc(F)cc3F)cnc12 ; strain: 60 strains ; measure: MIC ; value: 0.15 µg/mL
COc1cncc(-c2nc(C)[n+](-c3ccccc3)[nH]2)n1 ; measure: MIC ; method: broth dilution ; value: >256 µg/mL
O=C(N/N=C/c1cc([N+](=O)[O-])ccc1O)c1ccc(I)cc1 ; strain: ATCC 2901 ; measure: MIC ; value: >25 µg/mL
Cc1cc(-c2c(N=O)c(C)nn2-c2ccccc2)no1 ; measure: MIC ; value: >200 µM
Cc1c(Cl)[n+](=O)c2cc(Cl)ccc2n1[O-] ; strain: Clinical isolate 20 ; measure: MIC ; value: 7.8 µg/mL
C[C@@H]1[C@H](O)[C@@H](C)/C=C/C=C/C=C/C=C/C=C/C=C/C=C/[C@H](O[C@@H]2O[C@H](C)[C@@H](O)[C@H](N)[C@@H]2O)C[C@@H]2O[C@](O)(C[C@@H](O)C[C@@H](O)[C@H](O)CC[C@@H](O)C[C@@H](O)CC(=O)O[C@H]1C)C[C@H](O)[C@H]2C(=O)O ; strain: ATCC 10231 ; measure: MIC ; method: broth dilution ; value: 0.048 µg/mL
CCC(C)n1ncn(-c2ccc(N3CCN(c4ccc(OC[C@H]5CO[C@](Cn6cncn6)(c6ccc(Cl)cc6Cl)O5)cc4)CC3)cc2)c1=O ; strain: 13 isolates fluconazole-resistant ; measure: MIC90 ; value: >16 µg/mL
COc1cc2c3c(cc[n+](Cc4ccccc4)c3c1OC)N(Cc1ccccc1)C=C2 ; measure: MIC ; value: >64 µg/mL
CC(C)[C@]1(O)CC[C@]2(C)C[C@@H]3O[C@]3(C)C[C@H](OCC(=O)c3ccc(O)cc3)[C@H]21 ; measure: EC90 ; method: broth dilution ; value: >50 µg/mL
CCCCCCCC[n+]1ccc(/C=C/C(=O)c2ccc(OC)cc2)cc1 ; measure: MIC ; value: <6.72 µg/mL
CCC(C)CC(C)CCCCCCCCC(=O)N[C@H]1C[C@@H](O)[C@H](NCCN)NC(=O)[C@@H]2[C@@H](O)CCN2C(=O)[C@H]([C@H](O)CCN)NC(=O)[C@H]([C@H](O)[C@@H](O)c2ccc(O)cc2)NC(=O)[C@@H]2C[C@@H](O)CN2C(=O)[C@H]([C@@H](C)O)NC1=O ; strain: 40 isolates ; measure: MIC ; value: 32 µg/mL
CC(C)N=C(N)c1ccc2nc(-c3ccc4c(c3)Cc3cc(-c5nc6ccc(C(N)=NC(C)C)cc6[nH]5)ccc3-4)[nH]c2c1 ; strain: Isolate 2370 fluconazole-resistant ; measure: MIC ; value: 1.56 µg/mL
Cc1onc(-c2ccccc2Cl)c1C=O ; measure: EC50 ; value: >50 µg/mL
C[C@@H](n1cnc2cccc(Cl)c2c1=O)[C@](O)(Cn1cncn1)c1ccc(F)cc1F ; strain: 406 strains ; measure: MIC ; value: 0.15 µg/mL
OC(Cn1cncn1)(Cn1cncn1)c1ccc(F)cc1F ; strain: 3532-K31 ; measure: MIC ; value: 12.5 µg/mL
C[C@@H](n1cnc2cc(Cl)ccc2c1=O)[C@](O)(Cn1cncn1)c1ccc(F)cc1F ; strain: 60 strains ; measure: MIC ; value: ≤0.03 µg/mL
COc1cc(C(=O)O[C@H]2C=C(C)C(=O)C[C@@]3(C)CC[C@@](O)(C(C)C)C23)ccc1O ; strain: SC5314 ; measure: MIC ; value: >50 µg/mL
C[C@H]([C@](O)(Cn1cncn1)c1ccc(F)cc1F)S(C)(=O)=O ; strain: 60 strains ; measure: MIC ; value: 0.63 µg/mL
O=Cc1cc(-c2ccc(Cl)cc2)no1 ; measure: EC50 ; value: 20.9 µg/mL
CC(C)[C@]1(O)CC[C@]2(C)C=C[C@@](C)(O)C[C@H](OCC(=O)c3ccc(O)cc3)[C@H]21 ; measure: EC90 ; method: broth dilution ; value: >50 µg/mL
CC1C(=O)C(C)C(c2ccc(Cl)cc2)N(OCCc2nc3ncccc3[nH]2)C1c1ccc(Cl)cc1 ; strain: NCIM-C27 ; measure: MIC ; value: 25 µg/mL
C=CCN1C[C@H](OC[C@@]23C[C@@H]4[C@H](C)CC[C@H]4[C@@]4(C=O)C[C@@H]2CC(C(C)C)[C@@]34C(=O)O)O[C@H](C)C1 ; strain: 16 isolates/fluconazole resistant ; measure: MIC90 ; value: 0.06 µg/mL
C[C@H](n1cnc2cc(Cl)ccc2c1=O)[C@](O)(Cn1cncn1)c1ccc(F)cc1F ; strain: 406 strains ; measure: MIC ; value: 1.25 µg/mL
Cc1cc(NC(=O)c2ccccc2NC(=O)COc2ccccc2C)no1 ; strain: ATCC 10231 ; measure: MIC ; value: >100 µg/mL
COc1ccccc1C(=O)/C=C/c1cccnc1 ; measure: MIC ; value: 15 µg/mL
C[C@@H](n1cnc2cc(N3CCOC3=O)ccc2c1=O)[C@](O)(Cn1cncn1)c1ccc(F)cc1F ; strain: 76 strains ; measure: MIC ; value: 2.5 µg/mL
CCOc1cc2c(cc1F)n([O-])c(C)c(S(=O)(=O)c1ccccc1)[n+]2=O ; strain: Clinical isolate 21 ; measure: MIC ; value: 15.6 µg/mL
CCCn1nc(-c2cc(C)on2)c(N=O)c1C ; measure: MFC ; value: 22 µM
CC(C)[C@]1(C)CC[C@]2(C)C=CC(C)(C)C[C@H](OC(=O)c3ccc(O)cc3)C12 ; strain: SC5314 ; measure: MIC ; value: >50 µg/mL

Again, the opening 11 rows:

smiles,strain,measure,method,value
CC1C(=O)C(C)C(c2ccccc2)N(OCCc2nc3ncccc3[nH]2)C1c1ccccc1,6 (NCIM-C27),MIC,,200 µg/mL
O=Cc1cc(-c2ccc(F)cc2)on1,,MIC,,50 µg/mL
Cc1c(S(=O)(=O)c2ccccc2)[n+](=O)c2ccccc2n1[O-],Clinical isolate 1,MIC,,31.25 µg/mL
COc1ccc(CN2C[C@H](OC[C@@]34C[C@@H]5[C@H](C)CC[C@H]5[C@@]5(C=O)C[C@@H]3CC(C(C)C)[C@@]45C(=O)O)O[C@H](C)C2)cc1,16 isolates/fluconazole resistant,MIC50,,0.002 µg/mL
CCn1nc(C)c(N)c1-c1cc(C)on1,,MIC,,>200 µM
Cc1c(Sc2ccccc2)[n+](=O)c2cc(C(F)(F)F)ccc2n1[O-],Clinical isolate 9,MIC,,31.25 µg/mL
Cc1cccc2ncn([C@H](C)[C@](O)(Cn3cncn3)c3ccc(F)cc3F)c(=O)c12,406 strains,MIC,,0.07 µg/mL
O=C1CC(c2ccc(Cl)cc2)N(OCCc2nc3ncccc3[nH]2)C(c2ccc(Cl)cc2)C1,51 (NCIM-C27),MIC,,25 µg/mL
Cc1cc(NC(=O)c2ccccc2NC(=O)COc2ccc(Cl)cc2)no1,ATCC 10231,MIC,,>100 µg/mL
CCOC(=O)C1=C(C)NC(=O)C1,,MIC,,>100 µg/mL
C[C@@H](n1cnc2cc(Cl)ccc2c1=O)[C@](O)(Cn1cncn1)c1ccc(Cl)cc1Cl,406 strains,MIC,,≤0.03 µg/mL

ECn: concentration that inhibits the pathogen or its effect by n%. MIC50, MIC90 and the like: level of inhibition, or share of isolates inhibited. Neighbouring rows are from separate reports.